Pooled drug test results. Numbers come from NIAID ChemDB, via PubChem.

Common to all: tests in culture; organism: HIV-1

Two numbers with a dash give a range or band. Blank or dashed fields: not listed here. ECn: concentration that inhibits the pathogen or its effect by n%. Lines come from different laboratories, so protocols vary.

SMILES	endpoint	mutations	strain or isolate	cell line	read by	conditions	value
CNc1ncnc2c1ncn2[C@H]1S[C@@H](CO)C[C@@H]1N=[N+]=[N-]	EC50			MT-4			>100 µM
CC(C)(C)NC(=O)[C@@H]1C[C@H](O)CN1C(=O)[C@@H](O)[C@H](Cc1ccccc1)NC(=O)[C@H](CC(N)=O)NC(=O)OCc1ccccc1	EC50						10–30 µg/mL
CCOC(=O)c1cc(C(=O)c2ccccc2)n2ccc(C(=O)NCc3cccnc3)cc12	EC50		NL4-3	H9	ELISA		54.3 µM
O=c1[nH]c(=O)n(COCCOc2ccc(Cl)cc2)cc1Br	EC50			CEM + CEM-SS	cytopathic effect		>100 µM
CCc1c(NC)nc(Nc2ccc(C#N)cc2)nc1Oc1ccc2ccccc2c1	EC50	WT	IIIB	MT-4	MTT		0.031 µM
[N-]=[N+]=N[C@@H]1C[C@@H](CO)S[C@H]1n1cnc2c(Cl)ncnc21	EC50			MT-4			>100 µM
[N-]=[N+]=NC[C@H]1[C@H](n2cnc3c(N)ncnc32)O[C@@H]1CO	EC50		IIIB	MT-4	antigen		0.8 µg/mL
Cc1ccc(-c2ccc3c(c2)C=C(C(=O)Nc2ccc(C[N+](C)(C)C4CCOCC4)cc2)CCC3)cc1	EC50		Du151 CLADE C	PBMC	p24		<1 µM
CC(C)(C)NC(=O)[C@@H]1CCCN1C(=O)[C@@H](O)[C@H](Cc1ccccc1)NC(=O)[C@H](CC(N)=O)NC(=O)COc1ccc([N+](=O)[O-])cc1	EC50						4.5 µg/mL
C=CCc1ccc(O)c(-c2cc(CC=C)ccc2O)c1	EC90		LAV	PBMC	RT activity		>100 µM
Cc1nnc(-c2ccc3c(=O)n(-c4ccc(Cl)c5c(NS(C)(=O)=O)nn(CC(F)(F)F)c45)c([C@H](Cc4cc(F)cc(F)c4)NC(=O)Cn4nc(C(F)F)c5c4C(F)(F)[C@@H]4C[C@H]54)nc3c2)nc1C	EC50		NL4-3	MT-2	luciferase		0.00004 µM
[N-]=[N+]=N[C@H]1C[C@@H](CO)S[C@H]1n1cnc2c(N)ncnc21	EC50			MT-4			>100 µM
C=CCNc1nn2c(=O)c3ccccc3nc2s1	EC50		IIIB	MT-4	cytopathic effect / MTT		66.8 µg/mL
Nc1ncnc2c1ncn2[C@H]1CC[C@@H](CO)O1	EC50		IIIB	MT-4	RT activity / antigen		0.21 µg/mL
Nc1ccn([C@@H]2OC[C@H](CO)[C@H]2O)c(=O)n1	EC50			MT-4			>100 µM
O=C1Nc2ccc(Br)cc2/C1=N/n1c(-c2ccncc2)n[nH]c1=S	EC50		IIIB	MT-4	cytopathic effect / MTT		>11 µM
COc1ccc(N(C)C(=O)[C@H](Cc2cc(F)cc(F)c2)NC(=O)CN2CCN(S(=O)(=O)c3ccc(F)cc3)CC2=O)cc1	EC50		ROD	MT-4	MTT		0.12 µM
CC(C)OC(=O)OCOP(=O)(CO[C@H](C)Cn1cnc2c(N)ncnc21)OCOC(=O)OC(C)C	EC50		IIIB	MT-4	MTT		0.04 µg/mL
c1ccc(CNCCc2ccc(CN3CCNCCCCCCCNCC3)cc2)nc1	EC50		NL4-3	PBMC	p24		0.032 µg/mL
COC(=O)/C=C1\S/C(=N/N=C/c2ccccc2Br)NC1=O	EC50		IIIB	MT-4	cytopathic effect / MTT		>13.45 µM
CCCCCCCCCCCCCCCCOCCCOP(=O)(O)COCCn1cnc2c(=O)[nH]c(N)nc21	EC50				plaque count		0.001 µM
CSc1ncc(C(c2ccccc2)n2ccnc2)c(-c2ccccc2)n1	EC50		IIIB	MT-4	cytopathic effect / MTT		>61.7 µM
O=C1Nc2ccc(Cl)cc2/C1=N/n1c(-c2ccncc2)n[nH]c1=S	EC50		IIIB	MT-4	cytopathic effect / MTT		>11 µM
Cc1ccsc1C(CC(=O)c1ccncc1)CC(=O)c1ccncc1	EC50		IIIB	H9	p24		48 µM
CCc1c(NC)nc(Nc2ccc(C#N)cc2)nc1Oc1ccc2ccccc2c1Br	EC50	K103N + Y181C	IIIB	MT-4	MTT		3.01 µM
Nc1ncnc2c1ncn2[C@@H]1O[C@H](CO)[C@]1(O)CO	EC50		IIIB	MT-4	antigen		<2 µg/mL
O=C(Nc1ccc(Cl)c(C(=O)OC2CCCCC2)c1)c1ccccc1F	EC50	RT-Y181C	IIIB	CEM	syncytia		5 µg/mL
COC(=O)C(=O)N1CCC[C@H]1C(=O)N[C@@H](Cc1ccccc1)C(=O)Nc1ccccc1OCC(=O)N[C@@H](CC(N)=O)C(=O)N[C@@H](Cc1ccccc1)[C@H](O)C(=O)N1CCC[C@H]1C(=O)NC(C)(C)C	EC50			MT-4	antigen		60 µg/mL
Cc1ccnc2c1NC(=O)c1cccnc1N2C1CC1	EC50	K103N	RES056	MT-4	MTT		>15 µM
COc1ccc(N(C)C(=O)[C@H](Cc2cc(F)cc(F)c2)NC(=O)CN2CCN(S(=O)(=O)c3cccc(Cl)c3)CC2=O)cc1	EC50		IIIB	MT-4	MTT		0.93 µM
COc1ccc([C@H]2c3c(cc4c(c3OC)OCO4)C[C@H]3CSC[C@@H]32)cc1OCc1ccccc1	EC50		IIIB	SUP-T1/H9(HIV-1IIIB) + Sup-T1	syncytia		1.37 µM
COC(=O)/C=C1\S/C(=N/N=C/c2cccc(Br)c2)NC1=O	EC50		IIIB	MT-4	cytopathic effect / MTT		>11.15 µM
Cc1ccc(C)n1-c1ccc(C(=O)O)c(O)c1	EC50		92UG092 X4 CLADE A	PBMC/5.25M7	luciferase / cell fusion		10.59 µM
Cc1cn(C(CCO)SCCO)c(=O)[nH]c1=O	EC50			PBMC (mitogen stimulated) + PBMC	RT activity		>100 µM
CC1=C[C@@H]2C=C(C)[C@H]3CC=C[C@@]3(O)[C@]23C(=O)N[C@@H](CC(C)C)[C@@H]3[C@@H]1C	EC50			SupT1	luciferase	pseudotyped	25 µM
Cc1cc2ccccc2cc1Oc1ccnc(Nc2ccc(C#N)cc2)n1	EC50	WT	IIIB	MT-4	MTT		0.002 µM
O=C1/C(=N\n2c(-c3ccncc3)n[nH]c2=S)c2cc(Cl)ccc2N1CN1CCCCC1	EC50		IIIB	MT-4	cytopathic effect / MTT		>11 µM
Nc1nc(NC2CC2)c2ncn([C@H]3C=C[C@@H](CO)C3)c2n1	EC50		IIIB	MT-4	MTT		0.05 µg/mL
CNc1ncnc2c1ncn2[C@@H]1S[C@@H](CO)C[C@@H]1N=[N+]=[N-]	EC50			MT-4			>100 µM
COc1cc([C@H]2c3c(cc(OC)c(OC)c3OC)C[C@H]3COC(=O)[C@@H]32)cc(C)c1OC	EC50		IIIB	MT-4	cytopathic effect / MTT		41 µM
CCOCn1c(Cc2ccccc2)c(C(C)C)c(=O)[nH]c1=O	EC50	RT-Y181C					>100 µM
O=C1/C(=N\n2c(-c3ccncc3)n[nH]c2=S)c2cc(Br)ccc2N1CN1CCCCC1	EC50		IIIB	MT-4	cytopathic effect / MTT		>11 µM
Nc1nc(NC2CC2)c2ncn([C@H]3C=C[C@@H](CO)C3)c2n1	EC50			H9	GFP / reporter gene / fluorescence	pseudotyped	0.029 µM
Cc1c(Cl)nc(Nc2ccc(C#N)cc2)nc1Oc1ccc2ccccc2c1	EC50	K103N + Y181C	IIIB	MT-4	MTT		19.91 µM
CC(C)CN(C[C@@H](O)[C@H](Cc1ccccc1)NC(=O)O[C@H]1CO[C@H]2OCC[C@H]21)S(=O)(=O)c1ccc2nc(NC3CCN(C4CCCC4)CC3)sc2c1	EC50		LAI	MT-4	reporter gene		0.0142 µM
COC(=O)/C=C1\S/C(=N/N=C/c2ccccc2OCc2ccccc2)NC1=O	EC50		IIIB	MT-4	cytopathic effect / MTT		>14.35 µM
Cc1ncc(C(c2ccccc2)n2ccnc2)c(-c2ccccc2)n1	EC50		IIIB	MT-4	cytopathic effect / MTT		>200 µM
O=c1[nH]c(=O)c2ncn([C@@H]3O[C@H](CO)[C@H]3CO)c2[nH]1	EC50		IIIB	MT-4	RT activity / antigen		>100 µg/mL
Cc1ccnc(C)c1C(=O)N1CCC(C)(N2CCN([C@@H](C)c3ccc(C(F)(F)F)cc3)[C@@H](C)C2)CC1	EC50		JR-FL	PBMC	p24		0.0002 µM
CCOC(=O)c1cc(C(=O)c2ccc(C(F)(F)F)cc2)n2ccc(C(=O)NCc3ccccn3)cc12	EC50		NL4-3	H9	ELISA		20.5 µM
CCOCn1c(Cc2ccccc2)c(CO)c(=O)[nH]c1=O	EC50		IIIB	MT-4			22 µM
COc1ccc(N(C)C(=O)[C@H](Cc2cc(F)cc(F)c2)NC(=O)CN2CCN(S(=O)(=O)c3cccc(N)c3)CC2=O)cc1	EC50		IIIB	MT-4	MTT		0.16 µM
Cc1ccc(OCCOCn2c(C)c(Br)c(=O)[nH]c2=O)cc1	EC50			CEM + CEM-SS	cytopathic effect		7.8 µM
Nc1ncnc2c1ncn2[C@H]1C[C@@H](CO)O1	EC50		IIIB	MT-4	antigen		0.04 µg/mL
CCc1c(NC)nc(Nc2ccc(C#N)cc2)nc1Oc1ccc2cc(C#N)ccc2c1	EC50	K103N + Y181C	IIIB	MT-4	MTT		59.52 µM
Cc1cn([C@@H]2S[C@H](CO)C[C@@H]2N=[N+]=[N-])c(=O)[nH]c1=O	EC50			MT-4			>100 µM
Cc1ccc(OCCOCn2c(C)cc(=O)[nH]c2=O)cc1	EC50			CEM + CEM-SS	cytopathic effect		>100 µM
COC(=O)C(=O)N1CCC[C@H]1C(=O)N[C@@H](Cc1ccccc1)C(=O)Nc1cccc(OCC(=O)N[C@@H](CC(N)=O)C(=O)N[C@@H](Cc2ccccc2)[C@H](O)C(=O)N2CCC[C@H]2C(=O)NC(C)(C)C)c1	EC50			MT-4	antigen		100 µg/mL
[N-]=[N+]=N[C@H]1C[C@H](CO)S[C@@H]1n1cnc2c(Cl)ncnc21	EC50			MT-4			>100 µM
CCOC(=O)c1cc(C(=O)c2ccccc2N)n2ccc(C(=O)NCc3ccccn3)cc12	EC50		NL4-3	H9	ELISA		45.5 µM
COc1ccc(N(C)C(=O)[C@H](Cc2cc(F)cc(F)c2)NC(=O)CN2CCN(S(=O)(=O)c3ccccc3N)CC2=O)cc1	EC50		IIIB	MT-4	MTT		0.52 µM
COc1cc([C@H]2c3c(cc4c(c3OC)OCO4)C[C@H]3COC(=O)[C@@H]32)cc(C)c1OC	EC50		IIIB	SUP-T1/H9(HIV-1IIIB) + Sup-T1	syncytia		12.13 µM
CN(C)CN1C(=O)/C(=N\n2c(-c3ccncc3)n[nH]c2=S)c2ccccc21	EC50		IIIB	MT-4	cytopathic effect / MTT		>10 µM
CNc1nc(Nc2ccc(C#N)cc2)nc(Oc2ccc3ccccc3c2)c1C	EC50	WT	IIIB	MT-4	MTT		0.09 µM
COC(=O)/C=C1\S/C(=N/N=C/c2ccc(OC)cc2)NC1=O	EC50		IIIB	MT-4	cytopathic effect / MTT		>72.1 µM
CN(C)c1ncc(C(c2ccccc2)n2ccnc2)c(-c2ccccc2)n1	EC50		IIIB	MT-4	cytopathic effect / MTT		>58.7 µM
CCOCn1c(Cc2ccccc2)c(C=O)c(=O)[nH]c1=O	EC50		IIIB	MT-4			>100 µM
[N-]=[N+]=N[C@H]1C[C@@H](CO)S[C@@H]1n1cnc2c(N)ncnc21	EC50			MT-4			>100 µM
C=C1[C@H](n2cnc3c(N)ncnc32)O[C@@H]1CO	EC50		IIIB	MT-4			0.6 µg/mL
COC(=O)C(=O)N1CCC[C@H]1C(=O)N[C@H](Cc1ccccc1)C(=O)NCCCc1ccc(OCC(=O)N[C@@H](CC(N)=O)C(=O)N[C@@H](Cc2ccccc2)[C@H](O)C(=O)N2CCC[C@H]2C(=O)NC(C)(C)C)cc1	EC50			MT-4	antigen		>100 µg/mL
CCc1c(C)n(COCCOc2ccc(C)cc2)c(=O)[nH]c1=O	EC50			CEM + CEM-SS	cytopathic effect		>100 µM
[N-]=[N+]=N[C@@H]1C[C@@H](CO)S[C@@H]1n1cnc2c(Cl)ncnc21	EC50			MT-4			>100 µM
CC(C)=CCN1Cc2cccc3[nH]c(=S)n(c23)C[C@@H]1C	EC50		IIIB	MT-4			0.29 µM
COC(=O)C(=O)N1CCC[C@H]1C(=O)N[C@@H](Cc1ccccc1)C(=O)N[C@@H](CC(N)=O)C(=O)N[C@@H](Cc1ccccc1)[C@H](O)C(=O)N1CCC[C@H]1C(=O)NC(C)(C)C	EC50						>100 µg/mL
COc1ncc(C(c2ccccc2)n2ccnc2)c(-c2ccccc2)n1	EC50		IIIB	MT-4	cytopathic effect / MTT		>177.5 µM
Cc1cc(C#N)cc(C)c1Oc1nc(Nc2ccc(C#N)cc2)nc(N)c1Br	EC50	K103N	IIIB	MT-4	MTT		0.0032 µM
O=C1/C(=N\n2c(-c3ccncc3)n[nH]c2=S)c2cc(Cl)ccc2N1CN1CCOCC1	EC50		IIIB	MT-4	cytopathic effect / MTT		>14 µM
CCOC(=O)c1cc(C(=O)c2ccccc2)n2ccc(C(=O)N[C@H](C)c3ccccc3)cc12	EC50		NL4-3	H9	ELISA		41 µM